Drawing on PubChem BioAssay AID504648 (National Center for Advancing Translational Sciences (NCATS), 2011), this text covers Potency for one compound.

Only a part is listed here, and it is no random draw. Records with an inconclusive call do not appear. Activity calls are given as the source filed them. The call rests on the fitted dose curve; in most records, active means well fitted inhibition curve with a large enough effect; inconclusive means small, poorly fitted or top-dose-only effect, or effect the other way, or another doubt; inactive means no such curve, though single readings can be large or run the other way.
Potency means the concentration at half of the fitted maximal effect.

This assay can be described thus: Nrf2 qHTS screen for inhibitors: counterscreen for cytotoxicity. Conditions: A549 ARE-Fluc cells, CellTiter-Fluor viability, 18-24 h. The text has this:
NIH Molecular Libraries Probe Production Network [MLPCN]
NIH Chemical Genomics Center [NCGC]
Assay Provider: Shyam Biswal, Johns Hopkins University
Nrf2 is a transcription factor that maintains cellular redox homoestasis and protects cells from xenobiotics. Nrf2 binds to the antioxidant response element (ARE) to induce gene expression of a broad spectrum of genes that encode for antioxidants. […] Finding a small molecule that act as an inhibitor of Nrf2 function would represent a novel therapeutic target that could lead to improvement in survival of patients undergoing chemo- and/or radio- therapy.
So here we implemented a counterscreen to weed out the cytotoxic compounds.
1. […]
A concentration-response assay was performed with A549 ARE_Fluc cells which are suspended in 5% FBS OPTI-MEM. […] The plate is then incubated at 37deg C at 5% CO2 for 30 minutes before they are read on the ViewLux (Perkin Elmer) for a fluorescent read Ex=405(10)/Em=525(10) for a 3 second exposure, 2x binning, and high gain. […] Afterwards another ViewLux read is performed using the clear filter to get a luminescent read with the settings of 40 second exposure, 2x binning, and high gain. Cytotoxicity is assessed through the first fluorescent read and then biochemical activity against Nrf2 is measured in the luminescent read.
In general terms: Quantitative high-throughput screening tests each substance at several concentrations.
As for `CC(=O)OCC12CC(OC(=O)CC(C)C)C(C)=CC1OC1C(O)C(OC(C)=O)C2(C)C12CO2` (stereo unspecified), the Potency is active: 16.4 nM.
